The record followed here is patent US10036048B1, “Process for obtaining a naphthoquinone derivative from Streptomyces sp” (KING SAUD UNIVERSITY, priority 2017, dated 2018).

For the data set, the system named is A549 lung adenocarcinoma cancer cell line. Briefly: Cytotoxic activity (MTT, absorbance at 540 nm). It is filed as cell-based, human. The method, then: A549 lung adenocarcinoma cancer cell line was obtained from the National Institute of Cell Sciences, Pune. A549 cell line was maintained in complete tissue culture medium Dulbecco's Modified Eagle's Medium with 10% Fetal Bovine Serum and 2 mM L-Glutamine, along with antibiotics (about 100 International Unit/mL of penicillin, 100 μg/mL of streptomycin) with the pH adjusted to 7.2. The cytotoxicity was determined according to the method of Balachandran et al., (2013) with some changes. Cells (5000 cells/well) were seeded in 96 well plates containing medium with different concentrations such as 100, 80, 60, 40, 20, and 10 μg/mL. The cells were cultivated at 37° C. with 5% CO2 and 95% air in 100% relative humidity. After various durations of cultivation, the solution in the medium was removed. An aliquot of 100 μL of medium containing 1 mg/mL of 3-(4,5-dimethylthiazol-2-yl)-2,5-diphenyl-tetrazolium bromide was loaded in the plate. The cells were cultured for 4 h and then the solution in the medium was removed. An aliquot of 100 μL of DMSO was added to the plate, which was shaken until the crystals were dissolved. The cytotoxicity against cancer cells was determined by measuring the absorbance of the converted dye at 540 nm in an Enzyme linked immune sorbant assay (ELISA) reader. Cytotoxicity of each sample was expressed as the half maximal inhibitory concentration (IC50) value. The IC50 value is the concentration of test sample that causes 50% inhibition of cell growth, averaged from three replicate experiments.

With `CN1C(=O)N2CC(C)(OC3=C2C(=O)c2ccccc2C3=O)c2ccccc21` (stereo not shown) [C-5, Bluemomycin], the “Compound Mean ± S.D (absorbance at 540 nm)” value (“Compound Mean ± S.D” for short) (5 μg/mL) was 0.565 ± 0.00384; the “Compound Mean ± S.D” value (10 μg/mL) amounted to 0.465 ± 0.00376; the “Compound Mean ± S.D” value (20 μg/mL) is reported as 0.305 ± 0.00346; the “Compound Mean ± S.D” value (40 μg/mL) is listed as 0.251 ± 0.00622; the “Compound Mean ± S.D” value (60 μg/mL) was determined as 0.198 ± 0.00353; the “Compound Mean ± S.D” value (80 μg/mL) is listed as 0.135 ± 0.00376. In addition, where the note is “100 μg/mL”, the “Compound Mean ± S.D” value was 0.071 ± 0.00203.
